The data set has as its system O=C(O)C(=O)CS. The experiment in a line: purified protein. Particulars: pH 8.0; 37.0 °C.

Consider one substance from publication PMC6856128 (Scientific Reports, 2019).

For orientation: Km means the substrate concentration at which the rate is half of its maximum. On to “CysA2 (Mycobacterium tuberculosis H37Rv)”, for which the Michaelis constant (Km) amounted to 7.02 ± 0.05 mM.
